Construct, isoform or probe ends are uncertain for at least one entry. Results from cells or extracts need not show a direct contact.
Biological target: NSP12 (RNA-dependent RNA polymerase) (SARS-CoV-2) (UniProt P0DTD1)
Assay: binding assay
Conditions: eCLIP motif, weakly enriched; protein in cells; protein details: 2xStrep or 3xFLAG, expressed in BEAS-2B

## GUCCCG [GUCCCG motif]
  binding result: binds

— patent US20250320258
